Results of unrelated studies side by side (data: NIAID ChemDB).

Shared fields: host cell toxicity; cells: ATH8; endpoint: CC50

Lines come from different laboratories, so protocols vary. An empty or dashed field is not shown. CCn: concentration that lowers growth or viability of the cells by n%.

| SMILES | read by | result |
|---|---|---|
| NC[C@@H]1C=C[C@H](n2ccc(N)nc2=O)O1 |  | >500 µM |
| Nc1ncnc2c1ncn2[C@H]1CC[C@@H](COP(=O)(O)O)O1 |  | >200 µM |
| O=c1[nH]cnc2c1ncn2[C@H]1CC[C@@H](CO)O1 |  | >1000 µM |
| Nc1nc(N)c2ncn([C@@H]3C[C@H](CO)[C@@H](O)C3)c2n1 |  | 32 µg/mL |
| O=c1[nH]cnc2c1ncn2[C@H]1CC[C@@H](CO)O1 |  | 1000 µM |
| O=c1[nH]cnc2c1ncn2[C@H]1CC[C@@H](CO)O1 |  | >1000 µM |
| O=C(O)P(=O)(O)O |  | >100 µg/mL |
| Nc1ccn([C@H]2C=C[C@@H](CO)O2)c(=O)n1 |  | 2000 µM |
| Cc1cn([C@H]2C[C@H](N=[N+]=[N-])[C@@H](CO)O2)c(=O)nc1N |  | >100 µM |
| Nc1ncnc2c1ncn2C[C@H](O)CO |  | <1 µg/mL |
| CC(C)(C)NC(=O)[C@H]1N(C(=O)[C@@H](O)[C@H](Cc2ccccc2)NC(=O)[C@H](CC(N)=O)NC(=O)COc2cccc3ccccc23)CSC1(C)C |  | 30 µM |
| O=c1ccn([C@H]2C=C[C@@H](CO)O2)c(=O)[nH]1 |  | >100 µM |
| Cc1cn([C@H]2C[C@H](N=[N+]=[N-])[C@@H](CO)O2)c(=O)[nH]c1=O | trypan blue | 40 µM |
| Cc1cn([C@H]2CC[C@@H](CO)O2)c(=O)[nH]c1=O |  | 2000 µM |
| Nc1ncnc2c1ncn2[C@@H]1O[C@H](CO)[C@H]1CO |  | >100 µM |
| Nc1ncnc2c1ncn2C/C=C\CO |  | ~200 µM |
| CC(C)[C@H](NC(=O)N(C)Cc1ccccn1)C(=O)N[C@@H](Cc1ccccc1)[C@H](O)[C@@H](O)[C@H](Cc1ccccc1)NC(=O)[C@@H](NC(=O)N(C)Cc1ccccn1)C(C)C |  | >100 µM |
| Cc1cn([C@@H]2C[C@H](CO)[C@H]2CO)c(=O)[nH]c1=O |  | >500 µM |
| Nc1ccn([C@H]2CC[C@@H](CO)O2)c(=O)n1 |  | 35 µM |
| Nc1nc2c(ncn2[C@H]2C=C[C@@H](CO)C2)c(=O)[nH]1 |  | 35 µg/mL |
| Cc1cn([C@H]2CC[C@@H](CO)O2)c(=O)[nH]c1=O | trypan blue | >2000 µM |
| Cc1cn([C@H]2C=C[C@@H](CO)O2)c(=O)[nH]c1=O |  | 100 µM |
| Nc1nc(=O)n([C@H]2CC[C@@H](CO)O2)cc1Br |  | >30 µM |
| Nc1ncnc2c1ncn2CC#CCO |  | >100 µM |
| CCc1cn([C@H]2C[C@H](F)[C@@H](CO)O2)c(=O)[nH]c1=O |  | >500 µM |
| Nc1ccn([C@H]2CC[C@@H](CO)O2)c(=O)n1 |  | >10 µM |
| Cc1cn([C@H]2C[C@@H](O)[C@@H](CO)O2)c(=O)[nH]c1=O |  | >100 µM |
| Nc1ncnc2c1ncn2[C@@H]1C[C@H](CO)[C@H]1CO |  | 12 µM |
| CC(C)(C)NC(=O)[C@@H]1CCCN1C(=O)[C@@H](O)[C@H](Cc1ccccc1)NC(=O)[C@H](CC(N)=O)NC(=O)COc1cccc2ccccc12 |  | >20 µM |
| CCS[C@H]1C[C@H](n2cc(C)c(=O)[nH]c2=O)O[C@@H]1CO |  | >100 µM |
| Cc1cn(CC(=O)CCO)c(=O)[nH]c1=O |  | >100 µM |
| Cc1cn([C@H]2C[C@H](I)[C@@H](CO)O2)c(=O)[nH]c1=O |  | >500 µM |
| OC[C@H]1O[C@@H](n2cnc3c2NC=NC[C@H]3O)C[C@@H]1O |  | >0.05 µM |
| Nc1ccn([C@H]2CC[C@@H](CO)O2)c(=O)n1 |  | >5 µM |
| Cc1cn([C@H]2CC[C@@H](CO)O2)c(=O)nc1N |  | >100 µM |
| Nc1nc2c(ncn2CC(O)CCO)c(=O)[nH]1 |  | >100 µM |
| Cc1cn([C@H]2C=C[C@@H](CO)O2)c(=O)[nH]c1=O |  | 110 µM |
| Nc1ncnc2c1ncn2[C@H]1CC[C@@H](CO)O1 |  | >620 µM |
| Nc1ccn(C/C=C/CO)c(=O)n1 |  | >100 µM |
| Nc1ccn([C@H]2CC[C@@H](COP(=O)(O)O)O2)c(=O)n1 |  | >10 µM |
| Nc1nc2c(ncn2[C@@H]2C[C@H](CO)[C@@H](O)C2)c(=O)[nH]1 |  | 32 µg/mL |
| Cc1cn([C@H]2CC[C@@H](CO)O2)c(=O)[nH]c1=O |  | >2000 µM |
| Nc1ncnc2c1ccn2[C@@H]1O[C@H](CO)[C@@H](O)[C@H]1O |  | <0.02 µg/mL |
| CC(C)(C)NC(=O)[C@@H]1CCCN1C(=O)[C@@H](O)[C@H](Cc1ccccc1)NC(=O)[C@H](CC(N)=O)NC(=O)OCc1ccccc1 |  | 20 µM |
| Cc1cn([C@H]2CC[C@@H](COP(=O)(O)O)O2)c(=O)[nH]c1=O |  | >200 µM |
| Nc1ccn([C@H]2C=C[C@@H](CO)O2)c(=O)n1 |  | 30 µM |

A second listing of 4 rows from above:

SMILES | read by | result
O=c1[nH]cnc2c1ncn2[C@H]1CC[C@@H](CO)O1 |  | >1000 µM
Nc1nc(N)c2ncn([C@@H]3C[C@H](CO)[C@@H](O)C3)c2n1 |  | 32 µg/mL
Nc1nc(=O)n([C@H]2CC[C@@H](CO)O2)cc1Br |  | >30 µM
Cc1cn([C@H]2CC[C@@H](CO)O2)c(=O)[nH]c1=O | trypan blue | >2000 µM